Results deposited as PubChem BioAssay AID1259414 (Drosophila RNAi Screening Center, 2018).
The deposit covers about 24,000 reagents; this is a random part of those with a known target gene and a result. In the full data, about 1,210 (5%) got an active call. 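Inactive calls also include excluded dsRNAs with several or no targets, genes unexpressed in JW18, and well A1, regardless of score.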 Names joined by + are all predicted targets of the reagent.

Screen: 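Host factors increasing or decreasing Wolbachia levels in cultured fly cells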 (primary screen)
Cell system: Drosophila JW18 cells infected with Wolbachia
Reagents: long dsRNA against Drosophila genes, 0.25 µg dsRNA per well of a 384-well plate
Timing: 5 days
Conditions: cells persistently infected with Wolbachia before knock-down; no added drug
Measured: 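Imaged fluorescence in situ signal for Wolbachia 23S rRNA per DAPI-counted host cell, given as a robust z-score within each plate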
Scale: Wolbachia per cell robust z: higher = more Wolbachia per host cell than the plate typical
Rule for the call: 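Hit when robust z is 1.5 or more, or -1.5 or less, in at least two of three replicates; excludes dsRNAs with several or no targets, genes not expressed in JW18 and well A1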

| target | DRSC id | Wolbachia per cell robust z, rep 1 | Wolbachia per cell robust z, rep 2 | Wolbachia per cell robust z, rep 3 | call |
| --- | --- | --- | --- | --- | --- |
| mRpS23 (mitochondrial ribosomal protein S23) | DRSC01348 | -0.592 | -1.59 | -4.54 | active |
| CG32708 | DRSC18411 | -1.59 | -0.341 | -0.906 | inactive |
| CG32708 | DRSC28419 | -0.187 | 2.01 | -0.0666 | inactive |
| CG31467 | DRSC16048 | 0.173 | 0.111 | -0.105 | inactive |
| CG31467 | DRSC28533 | -3.07 | -3.37 | -3.28 | active |
| CG17597 | DRSC02630 | 1.24 | 0.551 | -1.19 | inactive |
| CG17597 | DRSC24788 | -2.13 | -0.463 | -1.87 | active |
| Moe (Moesin) | DRSC18684 | -0.822 | 0.604 | -2.16 | inactive |
| Moe (Moesin) | DRSC39153 | -1.8 | -4.35 | -3.34 | active |
| Cpr11B (Cuticular protein 11B) | DRSC19859 | 0.224 | -0.518 | 0.587 | inactive |
| CG17242 | DRSC00493 | 0.571 | 0.161 | 0.276 | inactive |
| CG3603 | DRSC18317 | 0.178 | 1.15 | -1.66 | inactive |
| Daxx (Daxx-like protein) | DRSC03255 | -0.887 | 1.79 | -0.352 | inactive |
| Daxx (Daxx-like protein) | DRSC29680 | 0.678 | -1.34 | -0.322 | inactive |
| Blos4 | DRSC10151 | -0.162 | 0.851 | 0.17 | inactive |
| Blos4 | DRSC27533 | -0.0685 | 2.06 | -0.17 | inactive |
| CG7430 | DRSC10845 | -1.63 | 0.818 | 0.554 | inactive |
| fz3 (frizzled 3) | DRSC18779 | -1.62 | 0.0249 | 0.123 | inactive |
| fz3 (frizzled 3) | DRSC29682 | -0.565 | 0.45 | 0.406 | inactive |
| Taf10 (TBP-associated factor 10) | DRSC30091 | 0.935 | 2.35 | 0.84 | inactive |
| CG15629 | DRSC00464 | -1.42 | 0.456 | -1.5 | inactive |
| CG15629 | DRSC29518 | -0.956 | 1.02 | 0.526 | inactive |
| CG9826 | DRSC04570 | 0.401 | 1.09 | 1.2 | inactive |
| CG13795 | DRSC02299 | -0.133 | 0.558 | 0.543 | inactive |
| Dtwd2 + Obp84a | DRSC12603 | -0.184 | -0.142 | -1.7 | inactive |
| snRNA:U11 (small nuclear RNA U11) | DRSC36526 | 0.827 | -0.251 | -0.493 | inactive |
| Iyd (Iodotyrosine deiodinase) | DRSC10614 | 0.453 | 0.57 | 0.466 | inactive |
| Iyd (Iodotyrosine deiodinase) | DRSC10615 | -0.204 | -0.881 | -0.207 | inactive |
| mora (morgana) | DRSC16594 | 0.231 | -0.132 | -0.538 | inactive |
| CG2930 | DRSC17730 | 0.0827 | -6.53 | -0.338 | inactive |
| CG2930 | DRSC26303 | 0.737 | -0.296 | 1.27 | inactive |
| Sox21b | DRSC23005 | -0.397 | -0.238 | -0.231 | inactive |
| Sox21b | DRSC25803 | -0.306 | -0.491 | -0.797 | inactive |
| CG11131 | DRSC11636 | -0.213 | 0.317 | -0.839 | inactive |
| CG11131 | DRSC21736 | -1.35 | -1.48 | 0.306 | inactive |
| CG11131 | DRSC28565 | 0.491 | 0.0968 | 0.584 | inactive |
| eIF5B (eukaryotic translation initiation factor 5B) | DRSC08429 | 0.893 | -0.174 | -0.125 | inactive |
| eIF5B (eukaryotic translation initiation factor 5B) | DRSC08710 | 0.16 | -0.645 | 1.48 | inactive |
| eIF5B (eukaryotic translation initiation factor 5B) | DRSC25022 | -0.743 | -2.09 | -1.59 | active |
| CG11617 | DRSC00321 | -1.11 | 0.704 | 0.94 | inactive |
| CG11617 | DRSC21786 | 0.0366 | -1.4 | -1.04 | inactive |
| CG11617 | DRSC28154 | -1.07 | 0.201 | -1.55 | inactive |
| eIF4E6 (eukaryotic translation initiation factor 4E6) | DRSC14853 | 0.346 | 0.399 | 1.46 | inactive |
| eIF4E6 (eukaryotic translation initiation factor 4E6) | DRSC25760 | 0.14 | 1.02 | 0.323 | inactive |
| eIF4E6 (eukaryotic translation initiation factor 4E6) | DRSC39077 | 0.449 | 2.56 | -0.493 | inactive |
| amos (absent MD neurons and olfactory sensilla) | DRSC03484 | -0.207 | -0.0364 | 1.23 | inactive |
| amos (absent MD neurons and olfactory sensilla) | DRSC24784 | 0.551 | -0.702 | -0.0225 | inactive |
| amos (absent MD neurons and olfactory sensilla) | DRSC38945 | 1.4 | 0.48 | 0.456 | inactive |
| mei-P22 (meiotic P22) | DRSC11366 | -0.507 | -3.99 | 0.51 | inactive |
| Ugt304A1 (UDP-glycosyltransferase family 304 member A1) | DRSC15127 | -0.272 | 0.0049 | 0.717 | inactive |
| Ugt304A1 (UDP-glycosyltransferase family 304 member A1) | DRSC26693 | 0.137 | -1.08 | -1.73 | inactive |
| Su(dx) (Suppressor of deltex) | DRSC00791 | 0.519 | -0.00485 | 0.215 | inactive |
| Su(dx) (Suppressor of deltex) | DRSC26192 | -0.0953 | 0.206 | 0.448 | inactive |
| CG17233 | DRSC23352 | 1.7 | 0.166 | 1.29 | inactive |
| Pglym87 (Phosphoglyceromutase 87) | DRSC15252 | -6.62 | -6.89 | -0.859 | inactive |
| Pglym87 (Phosphoglyceromutase 87) | DRSC26066 | 2.3 | 0.365 | 0.694 | inactive |
| tbrd-1 | DRSC14601 | 0.0976 | -2.71 | -6.12 | inactive |
| Fancm (Fanconi anemia group M helicase) | DRSC16348 | -0.373 | 1.04 | 1.23 | inactive |
| PolE1 (DNA polymerase epsilon subunit 1) | DRSC16112 | -7.39 | 0.693 | -1.76 | active |
| PolE1 (DNA polymerase epsilon subunit 1) | DRSC27613 | -0.828 | -0.646 | -0.232 | inactive |
| CG12896 + Prx6c + Prx6b | DRSC28111 | -1.57 | -0.699 | -0.138 | inactive |
| Targ2 (Terminal ADP-ribose protein glycohydrolase 2) | DRSC21970 | -0.287 | -0.28 | 0.395 | inactive |
| CG42495 | DRSC40603 | 0.769 | 0.243 | 0.359 | inactive |
| CG2129 | DRSC18209 | -0.552 | 0.748 | -1.13 | inactive |
| CG2129 | DRSC24934 | -1.34 | -1.94 | -1.08 | inactive |
| CG11000 | DRSC12082 | -1.35 | -3.7 | -1.57 | inactive |
| CG11000 | DRSC12158 | -0.967 | -0.626 | -0.195 | inactive |
| CG11000 | DRSC27020 | -1.74 | -1.29 | -0.0156 | inactive |
